Anti-infective test results gathered from many reports (values: NIAID ChemDB through PubChem).

All rows: target-level tests; organism: Human cytomegalovirus

Conditions beyond the fields shown may differ between rows. Inhibition is in % at the dose shown (toxicity tests: loss of growth or viability). ICn: concentration for n% inhibition. An empty or dashed field is not shown.

SMILES | protein | dose | method | measure | result
O=C(Nc1nnc(NC2CC2)s1)c1cc2ccccc2s1 | Polymerase |  |  | IC50 | >25 µM
N/C(=N\OC(=O)c1ccccc1-c1ccccc1)c1ccc(Cl)cc1Cl | Polymerase |  | scintillation proximity / radiometric | IC50 | 5.4 µM
COC(=O)[C@H](CC(C)C)Nc1nc2cccc(C)c2c(=O)o1 | Protease |  |  | IC50 | 1 µM
N/C(=N\OC(=O)C1CCCCC1)c1ccc(Cl)cc1Cl | Polymerase |  | scintillation proximity / radiometric | IC50 | >100 µM
O=C(Nc1nnc(NC2CCCCCC2)s1)c1ccc(I)cc1 | Polymerase |  |  | IC50 | >25 µM
O=C(c1cc2ccccc2cc1O)N1CCN(c2ccc(F)cc2)CC1 | HCMV DNA polymerase |  |  | IC50 | >100 µM
Cc1cc(Br)ccc1/C(N)=N\OC(=O)c1cccc2ccccc12 | Polymerase |  | scintillation proximity / radiometric | IC50 | 4.2 µM
O=C(NCc1cccc([N+](=O)[O-])c1)c1cc2ccccc2cc1O | HCMV DNA polymerase |  |  | IC50 | >100 µM
COCC(Cc1ccccc1)Nc1nc2cccc(C)c2c(=O)o1 | Protease |  |  | IC50 | 0.94 µM
CCOc1ccc2ccccc2c1C(=O)Nc1nnc(NCCSCC)s1 | Polymerase |  |  | IC50 | >25 µM
COC(=O)[C@H](Cc1cc(I)c(OC)c(I)c1)Nc1nc2ccc(NC(=O)OC(C)(C)C)c(C)c2c(=O)o1 | Protease |  |  | IC50 | 0.25 µM
Cc1cccc(C(=O)O/N=C(\N)c2ccc(Cl)cc2Cl)c1 | Polymerase |  | scintillation proximity / radiometric | IC50 | 16 µM
C[C@@H](Nc1nc2ccc(Cl)cc2c(=O)o1)c1ccccc1 | Protease | 10 µM |  | inhibition | 43%
N/C(=N\OC(=O)c1cc(Cl)cc(Cl)c1)c1ccc(Cl)cc1Cl | Polymerase |  | scintillation proximity / radiometric | IC50 | 25 µM
O=C(NCc1ccc(Cl)cc1)c1ccc2ccccc2c1 | HCMV DNA polymerase |  |  | IC50 | >100 µM
O=C(Nc1nnc(NCCCCc2ccccc2)s1)c1ccc(Br)cc1 | Polymerase |  |  | IC50 | >25 µM
O=C(NCc1ccccc1)c1cc2ccccc2cc1O | HCMV DNA polymerase |  |  | IC50 | >100 µM
N/C(=N\OC(=O)c1c(Cl)cccc1Cl)c1ccc(Cl)cc1Cl | Polymerase |  | scintillation proximity / radiometric | IC50 | 37 µM